Pooled drug test results. Numbers come from NIAID ChemDB, via PubChem.

Common to all: growth or infection tests; organism: Aspergillus fumigatus; measure: zone

Blank or dashed fields: not listed here. Conditions beyond the fields shown may differ between rows. Zone: diameter of growth inhibition.

smiles,strain or isolate,dose,method,result
CCCCCCCCN(CC(O)C[N+](C)(C)C)[C@@H]1[C@@H](O)[C@H](O[C@@H]2O[C@H](COCC(=O)O)[C@@H](O[C@@H]3C[C@H](COCC(=O)O)[C@@H](C)[C@H](O)[C@H]3N(CCCCCCCC)CC(O)C[N+](C)(C)C)[C@H](O)[C@H]2N(CCCCCCCC)CC(O)C[N+](C)(C)C)[C@@H](COCC(=O)O)O[C@H]1C,RCMB 02568,1 mg/mL,agar diffusion,16.7 mm
Nc1ccccc1C(=O)Nc1ccc(CC(=O)O)cc1,RCMB 02003,25 µg/mL,agar diffusion,11.8 mm
CCOC(=O)C[C@H](O)C[C@H](O)CC[C@@H]1[C@@H]2C(=CCC[C@@H]2C(=O)O[C@H](C)CC)C=C[C@@H]1C,,10 mg/disc,agar diffusion,0 mm
COc1ccc(NC(=O)c2ccccc2N)cc1,RCMB 02003,25 µg/mL,agar diffusion,15.8 mm
Cc1ccc(-n2cc(-c3ccc([N+](=O)[O-])cc3)c(-c3ccnc4nncn34)n2)cc1,,1.25 mg/mL,agar diffusion / agar,6 mm
C[C@@H]1[C@@H](COCC(=O)O)C[C@@H](O[C@H]2[C@H](O)[C@@H](N(Cc3cccc(Cl)c3)CC(O)C[N+](C)(C)C)[C@H](O[C@H]3[C@H](O)[C@@H](N(Cc4cccc(Cl)c4)CC(O)C[N+](C)(C)C)[C@H](C)O[C@@H]3COCC(=O)O)O[C@@H]2COCC(=O)O)[C@H](N(Cc2cccc(Cl)c2)CC(O)C[N+](C)(C)C)[C@H]1O,RCMB 02568,1 mg/mL,agar diffusion,18.2 mm
CCN1CCN(c2nc(Nc3ccc(C#N)c(C(F)(F)F)c3)nc(Oc3cccc4cccnc34)n2)CC1,MTCC 343,100 µg/disc,agar diffusion / agar,20 mm
CCOC(=O)C1=NN(c2ccccc2)C2=Nc3nccc(-c4nn(-c5ccccc5)cc4-c4ccc([N+](=O)[O-])cc4)c3C(=O)C12,,2.5 mg/mL,agar diffusion / agar,14 mm
C[C@@H]1[C@@H](COCC(=O)O)C[C@@H](O[C@H]2[C@H](O)[C@@H](N(Cc3cccs3)CC(O)C[N+](C)(C)C)[C@H](O[C@H]3[C@H](O)[C@@H](N(Cc4cccs4)CC(O)C[N+](C)(C)C)[C@H](C)O[C@@H]3COCC(=O)O)O[C@@H]2COCC(=O)O)[C@H](N(Cc2cccs2)CC(O)C[N+](C)(C)C)[C@H]1O,RCMB 02568,1 mg/mL,agar diffusion,19.2 mm
CN1CCN(c2nc(Nc3ccc(C#N)c(C(F)(F)F)c3)nc(Oc3cccc4cccnc34)n2)CC1,MTCC 343,100 µg/disc,agar diffusion / agar,20 mm
Nc1ccccc1C(=O)Nc1ccc(F)cc1,RCMB 02003,25 µg/mL,agar diffusion,11.8 mm
CC(=O)c1ccc(-c2nn(-c3ccc(C)cc3)cc2-c2ccc([N+](=O)[O-])cc2)nc1C,,5 mg/mL,agar diffusion / agar,7 mm
CC(C)N1CCN(c2nc(Nc3ccc(C#N)c(C(F)(F)F)c3)nc(Oc3cccc4cccnc34)n2)CC1,MTCC 343,100 µg/disc,agar diffusion / agar,21 mm
C[C@@H]1[C@@H](COCC(=O)O)C[C@@H](O[C@H]2[C@H](O)[C@@H](N(Cc3ccc(Cl)cc3Cl)CC(O)C[N+](C)(C)C)[C@H](O[C@H]3[C@H](O)[C@@H](N(Cc4ccc(Cl)cc4Cl)CC(O)C[N+](C)(C)C)[C@H](C)O[C@@H]3COCC(=O)O)O[C@@H]2COCC(=O)O)[C@H](N(Cc2ccc(Cl)cc2Cl)CC(O)C[N+](C)(C)C)[C@H]1O,RCMB 02568,1 mg/mL,agar diffusion,17.9 mm
N#Cc1ccc(Nc2nc(Oc3cccc4cccnc34)nc(N3CCN(c4ncccn4)CC3)n2)cc1C(F)(F)F,MTCC 343,100 µg/disc,agar diffusion / agar,25 mm
C[C@@H]1[C@@H](COCC(=O)O)C[C@@H](O[C@H]2[C@H](O)[C@@H](N(Cc3ccc(O)cc3)CC(O)C[N+](C)(C)C)[C@H](O[C@H]3[C@H](O)[C@@H](N(Cc4ccc(O)cc4)CC(O)C[N+](C)(C)C)[C@H](C)O[C@@H]3COCC(=O)O)O[C@@H]2COCC(=O)O)[C@H](N(Cc2ccc(O)cc2)CC(O)C[N+](C)(C)C)[C@H]1O,RCMB 02568,1 mg/mL,agar diffusion,14.8 mm
CN(C)/C=C/C(=O)c1nn(-c2ccccc2)cc1-c1ccc([N+](=O)[O-])cc1,,5 mg/mL,agar diffusion / agar,9 mm
C[C@@H]1[C@@H](COCC(=O)O)C[C@@H](O[C@H]2[C@H](O)[C@@H](N(Cc3ccccc3)CC(O)C[N+](C)(C)C)[C@H](O[C@H]3[C@H](O)[C@@H](N(Cc4ccccc4)CC(O)C[N+](C)(C)C)[C@H](C)O[C@@H]3COCC(=O)O)O[C@@H]2COCC(=O)O)[C@H](N(Cc2ccccc2)CC(O)C[N+](C)(C)C)[C@H]1O,RCMB 02568,1 mg/mL,agar diffusion,15.2 mm
O=C(c1cn2cnnc2nn1)c1nn(-c2ccccc2)cc1-c1ccc([N+](=O)[O-])cc1,,5 mg/mL,agar diffusion / agar,16 mm

2 of the rows above, restated:

smiles,strain or isolate,dose,method,result
C[C@@H]1[C@@H](COCC(=O)O)C[C@@H](O[C@H]2[C@H](O)[C@@H](N(Cc3cccs3)CC(O)C[N+](C)(C)C)[C@H](O[C@H]3[C@H](O)[C@@H](N(Cc4cccs4)CC(O)C[N+](C)(C)C)[C@H](C)O[C@@H]3COCC(=O)O)O[C@@H]2COCC(=O)O)[C@H](N(Cc2cccs2)CC(O)C[N+](C)(C)C)[C@H]1O,RCMB 02568,1 mg/mL,agar diffusion,19.2 mm
C[C@@H]1[C@@H](COCC(=O)O)C[C@@H](O[C@H]2[C@H](O)[C@@H](N(Cc3ccccc3)CC(O)C[N+](C)(C)C)[C@H](O[C@H]3[C@H](O)[C@@H](N(Cc4ccccc4)CC(O)C[N+](C)(C)C)[C@H](C)O[C@@H]3COCC(=O)O)O[C@@H]2COCC(=O)O)[C@H](N(Cc2ccccc2)CC(O)C[N+](C)(C)C)[C@H]1O,RCMB 02568,1 mg/mL,agar diffusion,15.2 mm